Reference: patent US20240209065A1

Target: S proteins (SΔ19) of BA.1, BA.2 and BA.4/5 Omicron subvariant pseudoviruses
Assay: cell-based or functional assay

DXP-604 IgG
IC50, pseudovirus assay (HIV platform): 0.091 nM and 0.836 nM

Values joined by “and” are separate entries in the source; they are usually repeats but may differ in a detail not shown here. Identical values can stand only once.
